Measured values from several laboratories, pooled; numbers as filed in NIAID ChemDB.

All rows: tests in culture; agent: Herpes simplex virus 1; read-out: EC50

Rows are shuffled and stem from different studies. An empty or dashed field is not shown. ECn: concentration that inhibits the pathogen or its effect by n%.

structure	strain or isolate	cell line	read by	result
O=c1[nH]c(=O)n([C@@H]2O[C@H](CO)[C@@H](O)[C@@H]2O)cc1/C=C/I	MP	HELF	plaque count	0.005 µg/mL
CCCCCCCCCCCCCCCCOP(=O)(O)CO[C@H](CO)Cn1ccc(N)nc1=O	HL-3	HFF	plaque count	0.2 µM
O=c1[nH]c(=O)n([C@H]2C[C@H](O)[C@@H](CO)O2)cc1Br		Human skin fibroblasts	cytopathic effect	0.32 µM
OC[C@H]1O[C@@H](c2ccc(F)cc2F)C[C@@H]1O	VMW 1837	E6SM	cytopathic effect	>400 µg/mL
O=c1[nH]c(=O)n([C@@H]2O[C@H](COP(=O)(O)O)[C@@H](O)[C@@H]2O)cc1/C=C/Br	MP	HELF	plaque count	0.005 µg/mL
CC[C@@H](N(C)C(=O)[C@@H](NC(=O)[C@@H](CC(=O)[C@@H](NC(=O)[C@H](C(C)C)N(C)C(=O)[C@@H](CC1CCCCC1)C(C)C)C(C)(C)C)CC(=O)C(C)(C)C)C1(C(=O)O)CCCC1)C(C)(C)C		BHK-21	ELISA	0.2 µM
OC[C@H]1O[C@H](c2cc(I)c(F)cc2F)C[C@@H]1O	F	E6SM	cytopathic effect	>400 µg/mL
CCCCCCCc1nc2c(N)ncnc2n1[C@H]1C[C@H](O)[C@@H](CO)O1	KOS	ESM	cytopathic effect	>40 µg/mL
CCCCCCCC/C=C\CCCCCCCOCCCOP1(=O)CO[C@@H](Cn2ccc(N)nc2=O)CO1	E-377	HFF	plaque count	0.05 µM
O=C(O)CP(=O)(O)O	HL-3	MEF	plaque count	3.6 µg/mL
CCCCCCCC/C=C\CCCCCCCCOCCOP(=O)(O)CO[C@H](CO)Cn1ccc(N)nc1=O	HL-3	HFF	plaque count	0.05 µM
OC[C@H]1O[C@H](c2ccc(F)cc2F)C[C@@H]1O	VMW 1837	E6SM	cytopathic effect	>400 µg/mL
Nc1nc2c(ncn2COCCO)c(=O)[nH]1	15990BW-S (acyclovir-susceptible)	HFF	cytopathic effect	0.5 µg/mL
OC[C@H]1O[C@H](c2cc(F)c(F)cc2F)C[C@@H]1O	VMW 1837	E6SM	cytopathic effect	>400 µg/mL
O=c1[nH]c(=O)n([C@H]2C[C@H](O)[C@@H](CO)O2)cc1I		Primary rabbit kidney cells	cytopathic effect	0.57 µM
O=c1[nH]c(=O)n([C@H]2C[C@H](O)[C@@H](CO)O2)cc1I	MP	HELF	plaque count	0.66 µg/mL
C[C@@H](c1ccccc1)N(CC(=O)Nc1ccc(-c2csc(N)n2)cc1)C(=O)c1ccncc1	KOS	BHK-21/C13	plaque count	0.08 µM
Cc1cn([C@@H]2O[C@H](CO)[C@@H](O)[C@@H]2F)c(=O)[nH]c1=O	VR-3	HELF	plaque count	0.005 µg/mL
C#Cc1nc2c(N)ncnc2n1[C@H]1C[C@H](O)[C@@H](CO)O1	B2006 (TK-)	ESM	cytopathic effect	>4 µg/mL
CC(=O)N[C@H]1C(OCCCCC(=O)NCCCC[C@H](NC(=O)CCCCOC2O[C@H](CO)[C@H](O)[C@H](O)[C@H]2NC(C)=O)C(=O)N[C@@H](CCCCNC(=O)CCCCOC2O[C@H](CO)[C@H](O)[C@H](O)[C@H]2NC(C)=O)C(=O)NCCNP(=O)(O)COCCn2cnc3c(N)ncnc32)O[C@H](CO)[C@H](O)[C@@H]1O		HepG2	cytopathic effect	0.047 µM
O=c1[nH]c(=O)n([C@H]2C[C@H](O)[C@@H](CO)O2)cc1Cl		Primary rabbit kidney cells	cytopathic effect	0.76 µM
Cc1cc([C@H]2C[C@H](O)[C@@H](CO)O2)c(F)cc1F	KOS	E6SM	cytopathic effect	>400 µg/mL
CCCCCCCC/C=C\CCCCCCCOCCOP1(=O)CO[C@@H](Cn2ccc(N)nc2=O)CO1	E-377	HFF	plaque count	0.04 µM
CCc1nc2c(N)ncnc2n1[C@H]1C[C@H](O)[C@@H](CO)O1	KOS	ESM	cytopathic effect	300 µg/mL
OC[C@H]1O[C@@H](c2cc(C(F)(F)F)c(F)cc2F)C[C@@H]1O	F	E6SM	cytopathic effect	>400 µg/mL
Nc1nc2c(ncn2COC(CO)CO)c(=O)[nH]1	25784	VERO H	plaque count	0.45 µM
O=C(NCc1ccc(Cl)cc1)c1c[nH]c2c(F)cccc2c1=O	PFA2 (T566A A605V)			1.5 µM
CCCCCC#Cc1nc2c(N)ncnc2n1[C@H]1C[C@H](O)[C@@H](CO)O1	KOS	ESM	cytopathic effect	>100 µg/mL
OC[C@H]1O[C@@H](c2cc(Cl)c(F)cc2F)C[C@@H]1O	McIntyre	E6SM	cytopathic effect	>400 µg/mL
CCCCC/C=C\c1nc2c(N)ncnc2n1[C@H]1C[C@H](O)[C@@H](CO)O1	B2006 (TK-)	ESM	cytopathic effect	>40 µg/mL
CCCCCCCC/C=C\CCCCCCCOCCCOP(=O)(O)CO[C@H](CO)Cn1ccc(N)nc1=O	F	HFF	plaque count	0.05 µM
Nc1nc(=O)n([C@H]2C[C@H](O)[C@@H](CO)O2)cc1/C=C/Br	F	Primary rabbit kidney cells	cytopathic effect	0.07 µg/mL

Repeating the final 3 entries:

| structure | strain or isolate | cell line | read by | result |
|---|---|---|---|---|
| CCCCC/C=C\c1nc2c(N)ncnc2n1[C@H]1C[C@H](O)[C@@H](CO)O1 | B2006 (TK-) | ESM | cytopathic effect | >40 µg/mL |
| CCCCCCCC/C=C\CCCCCCCOCCCOP(=O)(O)CO[C@H](CO)Cn1ccc(N)nc1=O | F | HFF | plaque count | 0.05 µM |
| Nc1nc(=O)n([C@H]2C[C@H](O)[C@@H](CO)O2)cc1/C=C/Br | F | Primary rabbit kidney cells | cytopathic effect | 0.07 µg/mL |